Drawing on PubChem BioAssay AID687043 (Milwaukee Institute for Drug Discovery, 2013), this text covers inhibition for four compounds.

SMILES strings stand for the structures. Only a part is listed here, and it is no random draw. The source made the active and inactive calls.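 The calls were made as follows: active = inhibition above the average over every tested compound plus 3 SD (cut at about 40% in these data); inactive = the rest.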

This test deals with Hepatitis C virus NS3 helicase. Briefly: compounds blocking NS3h DNA binding – biochemical, fluorescence polarization, ChemBridge library, primary screen (AID 687043). Conditions: NS3h Cy5-dT15 DNA binding, at 100 µM, stronger effect = higher value. (In general: In fluorescence polarisation assays a small probe gives low polarisation when free and higher when bound to something large.)
For orientation: inhibition means the drop in the measured response relative to a control, in per cent. `O=C(CF)NC(Sc1ccc(Cl)cc1)C(Cl)(Cl)Cl` (centres undefined): the inhibition was inactive: 6.3%.
The same measure for `Cc1ccc(SC(NC(=O)c2ccccc2)C(Cl)Cl)cc1` (centres undefined): inactive: 16.1%; for `CCCCSP(=O)(OCC(C)C)OCC(C)C`: inactive: 15.1%; for `COC(=O)NC(Sc1ccc(Cl)cc1)C(Cl)Cl` (centres undefined): inactive: 16.1%.
